# Experimental data as given in patent US20140287433.
# B1: isolated BoNT/B LC (residues 1-441) (protein)
# chain: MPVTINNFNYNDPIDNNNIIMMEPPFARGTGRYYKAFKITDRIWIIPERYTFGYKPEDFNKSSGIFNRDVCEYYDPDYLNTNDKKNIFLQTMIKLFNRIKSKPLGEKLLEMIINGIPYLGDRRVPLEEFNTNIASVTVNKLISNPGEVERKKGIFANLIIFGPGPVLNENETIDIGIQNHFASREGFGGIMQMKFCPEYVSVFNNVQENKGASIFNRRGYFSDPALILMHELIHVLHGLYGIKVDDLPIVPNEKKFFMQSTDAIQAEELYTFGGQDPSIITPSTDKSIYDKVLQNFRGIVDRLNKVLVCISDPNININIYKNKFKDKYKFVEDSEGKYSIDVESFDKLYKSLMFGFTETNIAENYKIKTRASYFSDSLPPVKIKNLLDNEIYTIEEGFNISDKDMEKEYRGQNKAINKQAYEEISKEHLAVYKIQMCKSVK
# B2: TeNT (protein)
# chain: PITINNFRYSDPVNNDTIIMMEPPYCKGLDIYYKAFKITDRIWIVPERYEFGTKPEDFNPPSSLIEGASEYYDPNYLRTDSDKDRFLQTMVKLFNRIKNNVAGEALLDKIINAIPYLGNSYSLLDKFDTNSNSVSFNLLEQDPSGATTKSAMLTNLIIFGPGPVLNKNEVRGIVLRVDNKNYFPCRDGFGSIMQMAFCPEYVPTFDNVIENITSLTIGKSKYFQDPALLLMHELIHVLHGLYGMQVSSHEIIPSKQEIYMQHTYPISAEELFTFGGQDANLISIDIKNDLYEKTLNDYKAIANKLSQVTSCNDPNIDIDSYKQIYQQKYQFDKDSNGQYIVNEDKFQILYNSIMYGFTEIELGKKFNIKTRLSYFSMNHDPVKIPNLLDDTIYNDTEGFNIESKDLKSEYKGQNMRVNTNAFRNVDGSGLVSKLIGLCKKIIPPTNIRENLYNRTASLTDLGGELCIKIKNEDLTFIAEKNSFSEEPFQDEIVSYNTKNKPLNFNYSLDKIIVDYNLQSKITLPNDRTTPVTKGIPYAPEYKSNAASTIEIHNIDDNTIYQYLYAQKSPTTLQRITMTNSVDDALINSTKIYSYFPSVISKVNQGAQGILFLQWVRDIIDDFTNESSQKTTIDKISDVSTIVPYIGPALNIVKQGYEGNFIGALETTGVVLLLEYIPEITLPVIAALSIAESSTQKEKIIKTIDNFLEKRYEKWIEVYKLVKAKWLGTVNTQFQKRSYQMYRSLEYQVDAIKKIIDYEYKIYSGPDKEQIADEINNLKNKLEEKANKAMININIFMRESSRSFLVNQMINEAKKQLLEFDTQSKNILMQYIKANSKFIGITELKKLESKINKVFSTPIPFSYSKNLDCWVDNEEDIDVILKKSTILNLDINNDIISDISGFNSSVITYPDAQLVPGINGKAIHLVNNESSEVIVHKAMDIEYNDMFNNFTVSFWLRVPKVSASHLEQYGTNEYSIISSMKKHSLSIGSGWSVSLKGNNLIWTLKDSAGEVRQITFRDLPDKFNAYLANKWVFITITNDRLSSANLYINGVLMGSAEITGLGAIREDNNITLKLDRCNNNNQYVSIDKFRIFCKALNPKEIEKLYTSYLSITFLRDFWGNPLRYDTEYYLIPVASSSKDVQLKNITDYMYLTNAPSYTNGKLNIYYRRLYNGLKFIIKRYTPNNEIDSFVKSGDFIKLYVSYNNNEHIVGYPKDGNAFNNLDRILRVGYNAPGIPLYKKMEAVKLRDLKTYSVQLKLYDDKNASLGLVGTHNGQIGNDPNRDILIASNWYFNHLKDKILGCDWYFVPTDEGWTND
# B3: Proteinase K (Sigma-Aldrich) (protein)
# chain: AAQTNAPWGLARISSTSPGTSTYYYDESAGQGSCVYVIDTGIEASHPEFEGRAQMVKTYYYSSRDGNGHGTHCAGTVGSRTYGVAKKTQLFGVKVLDDNGSGQYSTIIAGMDFVASDKNNRNCPKGVVASLSLGGGYSSSVNSAAARLQSSGVMVAVAAGNNNADARNYSPASEPSVCTVGASDRYDRRSSFSNYGSVLDIFGPGTSILSTWIGGSTRSISGTSMATPHVAGLAAYLMTLGKTTAASACRYIADTANKGDLSNIPFGTVNLLAYNNYQA
# Biological target: VAMPtide (o-Abz/Dnp) (List Biological Laboratories, Inc.)
protein,measurement,value
B1,"cleavage activity in the modified cleavage buffer (2 mM TCEP, no Tween-20)",isolated BoNT/B LC did not exhibit any cleavage activity under these conditions
B2,cleavage activity in the modified cleavage buffer,the cleavage reaction did neither work for TeNT
B3,"cleavage of 200 µM VAMPtide by 100 µg/mL Proteinase K, ELISA and fluorescence",Proteinase K successfully cleaved VAMPtide
